The source of these data is PMC8606745 (Frontiers in Microbiology, 2021).

This data set in a line: general procedure: Fmoc solid-phase peptide synthesis; Fmoc-Rink-ChemMatrix resin (0.69 mmol/g), PAC-MBHA resin (0.24 mmol/g), or Fmoc-Rink-MBHA resin (0.56 mmol/g). The note with it: whole synthesis.
Take C3H7CO-ILPFKFPFFPFRR-NH2: the “final HPLC purity” value is given as above 99%.

For C5H11CO-ILPFKFPFFPFRR-NH2, the “final HPLC purity” value is given as above 99%.

C11H23CO-ILPFKFPFFPFRR-NH2: the “final HPLC purity” value is given as above 99%.

Turning to FLFSLIPHAIGGLISAFK-NH2, the “final HPLC purity” value is above 99%.

For the substance FLFSLIPKAIGGLISAFK-NH2, the “final HPLC purity” value was above 99%.

FLFSLIPRAIGGLISAFK-NH2: the “final HPLC purity” value is above 99%.

On to FRIRVRV-NH2, for which the “final HPLC purity” value is given as 95%.

GIGKFLHSAK-NH2: the “final HPLC purity” value is above 99%.

GIGKFLHSAKKFGKAFVGEIMNS-NH2: the “final HPLC purity” value was found to be 64%.

Take GILGKLWEGVKSIF-NH2: the “final HPLC purity” value is above 99%.

Take HOC11H22CO-ILPFKFPFFPFRR-NH2: the “final HPLC purity” value is above 99%.

With ILKKLLKKVKKI-NH2, the “final HPLC purity” value is above 99%.

In the case of ILKKLLKKVKSI-NH2, the “final HPLC purity” value is above 99%.

On to ILPFKFPFFPFRR-NH2, for which the “final HPLC purity” value is listed as above 99%.

Regarding ILPWKWPWWPWRR-NH2, the “final HPLC purity” value is given as above 99%.

As for KQFRIRVRV-NH2, the “final HPLC purity” value was above 99%.

With KRFRIRVRV-NH2, the “final HPLC purity” value is above 99%.

As to KRFRIRVRVIRK-NH2, the “final HPLC purity” value is 97%.

KRIVKLILKWLR-NH2: the “final HPLC purity” value worked out at 97%.

With RFRRLFRIRVRVLKKI-NH2, the “final HPLC purity” value is above 99%.

RIVWVRIRRWFV-NH2: the “final HPLC purity” value is reported as above 99%.

Turning to VFWRRIRVWVIR-NH2, the “final HPLC purity” value was above 99%.

On to VQFRIRVRIVIRK-NH2, for which the “final HPLC purity” value came to 94%.

Regarding VQWRIRVRVIKK-NH2, the “final HPLC purity” value is 98%.

VRLIVAVRIWRR-NH2: the “final HPLC purity” value is 93%.

As for WIRRIKKWIRRVHK-NH2, the “final HPLC purity” value is above 99%.

For the substance WKKIRVRLSA-NH2, the “final HPLC purity” value was above 99%.

With WLRRIKAWLRRIKA-NH2, the “final HPLC purity” value is reported as above 99%.

With WLRRIKAWLRRIKA-OH, the “final HPLC purity” value was above 99%.

Turning to WLRRIKAWLRRKRK-NH2, the “final HPLC purity” value is above 99%.
